Data as given in PubChem BioAssay AID624099 (ICCB-Longwood, 2012)

Aim: 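Human genes that papillomavirus E2 requires to repress the HPV18 LCR promoter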 (primary screen)
Cell system: human C33A cervical carcinoma cells (HPV-negative) stably expressing BPV1 E2 and an HPV18 LCR luciferase reporter
Reagent: siRNA pool against human genes, 40 nM
Duration: 72 h
Measured: 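Per-well luciferase luminescence, z-scored on each plate against the plate mean and SD with control wells left out, then averaged across three replicate plates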
Direction: mean z-score and z-score: higher = stronger reporter signal, weaker E2 silencing
Hit rule: 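Hit if mean z-score reaches 2 and two or more of three replicate z-scores also reach 2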
Here is an unselected part of about 21,000 deposited reagents. In the full data, 497 (2.4%) are marked active. 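Higher z means weaker E2 silencing; only reporter increases were scored, and knock-downs that hurt cell survival may mask genuine repressor factors.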 Reagents against one gene are numbered here.

no.	Target gene	reagent no.	mean z-score	z-score, replicate A	z-score, replicate B	z-score, replicate C	call
1	LOC392563 (retired record)	1	-0.55	-0.64	-0.76	-0.26	inactive
2	RPS7P10	1	-4.13	-4.37	-4.25	-3.78	inactive
3	PRL	1	-0.54	-0.57	-0.56	-0.48	inactive
4	DLGAP1	1	-0.16	0.04	-0.29	-0.22	inactive
5	DLGAP1	2	1.48	1.55	1.42		inactive
6	DLGAP1	3	-0.45	-0.52	-0.49	-0.35	inactive
7	KLHL42	1	1.32	1.17	1.28	1.51	inactive
8	C12orf56	1	0.35	0.47	0.18	0.41	inactive
9	TCP11L1	1	0.21	0.42	0.16	0.05	inactive
10	VAV1	1	-0.35	-0.06	-0.56	-0.42	inactive
11	LHPP	1	0.28	0.13	0.46	0.27	inactive
12	ATP5F1C	1	-0.38	-0.51	-0.34	-0.29	inactive
13	PDGFD	1	-0.22	-0.31	0.02	-0.36	inactive
14	SLC16A10	1	-1.77	-1.45	-1.56	-2.3	inactive
15	JUP	1	0.31	0	0.37	0.55	inactive
16	SYTL2	1	-0.26	-0.31	-0.51	0.05	inactive
17	PCGF6	1	-0.27	-0.56	-0.41	0.15	inactive
18	HROB	1	0.65	0.65	0.44	0.86	inactive
19	HAS2	1	0.36	0.46	0.38	0.25	inactive

Part of the list above, reduced to “z-score, replicate C”:
C12orf56	0.41
TCP11L1	0.05
VAV1	-0.42
LHPP	0.27
ATP5F1C	-0.29
PDGFD	-0.36
SLC16A10	-2.3
JUP	0.55
SYTL2	0.05

Continued.
no.	Target gene	reagent no.	mean z-score	z-score, replicate A	z-score, replicate B	z-score, replicate C	call
20	TSPAN8	1	1.24	1.47	1.51	0.74	inactive
21	SHCBP1L	1	-1.35	-1.48	-1.2	-1.39	inactive
22	SH3BP5L	1	-0.79	-0.74	-0.68	-0.96	inactive
23	DNAH17	1	-0.72	-0.53	-0.98	-0.66	inactive
24	CPLANE2	1	0.01	-0.23	0.4	-0.16	inactive
25	NRP2	1	2.43	1.92	2.47	2.91	active
26	OR52H1	1	-0.33	-0.45	-0.06	-0.49	inactive
27	CD47	1	0.91	1.42	0.63	0.69	inactive
28	HIPK4	1	0.41	0.86	0.21	0.17	inactive
29	BPIFC	1	-1.44	-0.95	-1.79	-1.6	inactive
30	ZNF542P	1	-0.03	0.18	0	-0.26	inactive
31	SELENON	1	-0.31	-0.22	-0.27	-0.43	inactive
32	SUMO1	1	-0.47	-0.22	-0.67	-0.52	inactive
33	RIMKLB	1	-1.58	-1.6	-1.56	-1.59	inactive
34	MYG1	1	1.38	0.99	1.42	1.72	inactive
35	MAEL	1	1.9	1.82	1.5	2.38	inactive
36	CR1L	1	-0.24	-0.09	-0.36	-0.25	inactive
37	CYB5D1	1	-1.27	-1.32	-1.34	-1.16	inactive
38	SUCLG1	1	0.95	0.99	0.82	1.05	inactive
39	DAW1	1	0.93	0.88	1.25	0.65	inactive
40	REEP3	1	-0.14	-0.01	-0.54	0.13	inactive
41	CNOT3	1	-0.52	-1	-0.58	0.03	inactive
42	CACNG3	1	-0.23	-0.17	-0.2	-0.32	inactive
43	CUTA	1	1.17	1.18	1.17	1.15	inactive
44	ZNF264	1	0.13	0.14	0.07	0.19	inactive
45	CST11	1	-0.63	-0.17	-0.86	-0.86	inactive
46	SHB	1	1.24	1.58	1.35	0.78	inactive
47	ACCS	1	-0.86	-1.07	-0.73	-0.78	inactive
48	DYRK2	1	0.64	0.83	0.88	0.21	inactive
49	FABP3	1	0.03	0	0.23	-0.14	inactive
50	PM20D1-AS1	1	-0.2	-0.48	-0.33	0.21	inactive
51	CRTAP	1	-0.52	-0.3	-0.61	-0.64	inactive
52	BEND6	1	0.8	0.85	0.9	0.66	inactive
53	ZSCAN16	1	-0.73	-0.87	-0.54	-0.76	inactive
54	ATP6V0A1	1	0.58	0.6	0.53	0.6	inactive
55	NPY2R	1	0.86	0.92	0.72	0.92	inactive
56	LOC401384 (retired record)	1	0.88	0.65	1.45	0.53	inactive
57	ADIRF	1	-0.26	-0.18	-0.18	-0.42	inactive
